Source: PubChem BioAssay AID588519 (ICCB-Longwood Screening Facility, Harvard Medical School, 2011)
The list shows a part of the results, in another mix than the full data. Active and inactive are the calls of the source. No stated cut-off is given here; in the data, active means % elongation below about 90%; inactive means the rest, inconclusive results apart.

By UniProt entry, the sequences of proteins in these tests, tags left out.
UniProt P03300, whole entry, looked up: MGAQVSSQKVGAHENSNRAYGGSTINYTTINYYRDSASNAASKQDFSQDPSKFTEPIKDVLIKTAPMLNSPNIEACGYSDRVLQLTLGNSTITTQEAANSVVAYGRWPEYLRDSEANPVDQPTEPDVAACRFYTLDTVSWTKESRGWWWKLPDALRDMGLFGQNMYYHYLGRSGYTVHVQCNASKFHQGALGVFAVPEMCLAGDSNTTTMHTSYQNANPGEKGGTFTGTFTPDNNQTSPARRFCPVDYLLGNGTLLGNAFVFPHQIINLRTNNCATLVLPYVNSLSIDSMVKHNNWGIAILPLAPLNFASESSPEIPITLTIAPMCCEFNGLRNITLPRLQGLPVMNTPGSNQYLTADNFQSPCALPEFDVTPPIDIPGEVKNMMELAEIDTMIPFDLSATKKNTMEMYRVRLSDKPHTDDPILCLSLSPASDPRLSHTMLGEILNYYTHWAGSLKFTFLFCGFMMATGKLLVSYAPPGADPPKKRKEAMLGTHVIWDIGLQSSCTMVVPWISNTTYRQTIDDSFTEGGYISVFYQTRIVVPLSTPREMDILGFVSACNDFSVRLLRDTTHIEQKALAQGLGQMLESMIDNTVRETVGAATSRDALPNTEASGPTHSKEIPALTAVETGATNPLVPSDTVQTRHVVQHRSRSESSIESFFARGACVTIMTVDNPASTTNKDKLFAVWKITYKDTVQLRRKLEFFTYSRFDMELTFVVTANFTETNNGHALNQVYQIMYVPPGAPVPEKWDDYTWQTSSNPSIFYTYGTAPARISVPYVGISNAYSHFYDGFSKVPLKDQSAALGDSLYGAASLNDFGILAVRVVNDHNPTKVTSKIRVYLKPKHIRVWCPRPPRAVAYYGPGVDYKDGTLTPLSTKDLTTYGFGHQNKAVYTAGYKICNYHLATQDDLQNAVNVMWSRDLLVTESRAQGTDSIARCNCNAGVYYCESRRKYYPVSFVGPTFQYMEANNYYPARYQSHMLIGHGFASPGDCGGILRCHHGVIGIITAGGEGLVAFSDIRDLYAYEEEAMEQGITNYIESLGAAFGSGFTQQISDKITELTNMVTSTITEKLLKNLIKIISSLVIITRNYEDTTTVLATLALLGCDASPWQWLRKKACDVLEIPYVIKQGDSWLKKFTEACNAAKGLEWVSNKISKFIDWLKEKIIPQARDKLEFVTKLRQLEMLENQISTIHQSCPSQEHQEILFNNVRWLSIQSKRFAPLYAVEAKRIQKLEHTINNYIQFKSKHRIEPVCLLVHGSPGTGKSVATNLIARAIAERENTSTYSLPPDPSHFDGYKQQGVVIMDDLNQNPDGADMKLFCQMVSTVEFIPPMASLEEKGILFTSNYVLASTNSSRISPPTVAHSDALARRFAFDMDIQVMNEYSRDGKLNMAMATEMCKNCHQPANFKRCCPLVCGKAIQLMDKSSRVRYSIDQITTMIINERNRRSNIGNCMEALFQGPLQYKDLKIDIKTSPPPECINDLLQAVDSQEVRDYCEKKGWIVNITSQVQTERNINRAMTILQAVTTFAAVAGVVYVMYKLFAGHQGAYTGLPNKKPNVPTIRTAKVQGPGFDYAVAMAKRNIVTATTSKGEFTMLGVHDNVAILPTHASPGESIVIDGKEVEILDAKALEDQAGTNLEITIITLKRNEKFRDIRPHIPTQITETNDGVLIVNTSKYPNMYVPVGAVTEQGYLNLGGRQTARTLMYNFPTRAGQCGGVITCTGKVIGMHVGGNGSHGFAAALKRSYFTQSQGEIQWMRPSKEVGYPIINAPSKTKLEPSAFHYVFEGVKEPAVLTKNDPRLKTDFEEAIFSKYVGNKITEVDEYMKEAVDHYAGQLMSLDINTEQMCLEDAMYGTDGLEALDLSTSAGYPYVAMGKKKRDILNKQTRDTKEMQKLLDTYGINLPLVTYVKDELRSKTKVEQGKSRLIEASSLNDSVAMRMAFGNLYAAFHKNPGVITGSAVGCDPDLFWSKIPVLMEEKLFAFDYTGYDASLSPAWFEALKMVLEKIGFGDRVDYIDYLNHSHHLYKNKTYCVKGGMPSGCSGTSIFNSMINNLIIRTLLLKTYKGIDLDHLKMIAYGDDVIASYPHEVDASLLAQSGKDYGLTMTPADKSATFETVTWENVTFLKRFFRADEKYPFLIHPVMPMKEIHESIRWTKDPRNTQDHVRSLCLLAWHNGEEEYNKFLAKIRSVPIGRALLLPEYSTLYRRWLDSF

Target: Genome polyprotein (Poliovirus type 1 (strain Mahoney)) (UniProt P03300)
Test: inhibitors of poliovirus polymerase RNA elongation – biochemical, fluorescence polarization, total intensity, primary screen (AID 588519)
Conditions: hits give low values, compound at 16.7 µg/mL

Compound	% elongation
CCc1nc2c(n1)c1c(non1O)c1c2no[n+]1[O-]	active: 79%
